Anti-infective test results gathered from many reports (values: NIAID ChemDB through PubChem).

Shared fields: growth or infection tests; species: Poliovirus; endpoint: inhibition

Lines come from different laboratories, so protocols vary. Inhibition is in % at the dose shown (toxicity tests: loss of growth or viability).

{"smiles": "CC(O)c1ccc2c(c1)Sc1cc(C(C)O)ccc1O2", "strain or isolate": "TYPE 3", "cell line": "BSC-1", "tested at": "10 µg/mL", "result": "47%"}
{"smiles": "CC(C)=CCCC(COS(=O)(=O)O)C1CCC2C3CC=C4C[C@H](O)[C@@H](OS(=O)(=O)O)CC4(C)C3CCC12C", "strain or isolate": "TYPE 3", "cell line": "VERO", "tested at": "40 µg/mL", "result": "2%"}
{"smiles": "Clc1ccc2c(c1)C=C(c1ccc(Br)cc1)CO2", "strain or isolate": "IB (TYPE 2)", "cell line": "HEP-2", "tested at": "10 µM", "result": "29%"}
{"smiles": "CC(O)c1ccc2c(c1)Sc1ccccc1O2", "strain or isolate": "TYPE 3", "cell line": "BSC-1", "tested at": "10 µg/mL", "result": "100%"}
{"smiles": "CC(C)CCC[C@@H](COS(=O)(=O)O)[C@H]1CC[C@H]2[C@@H]3CC[C@@H]4[C@H](O)[C@H](OS(=O)(=O)O)CC[C@]4(C)[C@H]3[C@@H](O)C[C@]12C", "strain or isolate": "SABIN (TYPE 3)", "cell line": "VERO", "tested at": "20 µg/mL", "result": "28%"}
{"smiles": "Clc1ccc(C2COc3ccccc3C2)cc1", "strain or isolate": "SABIN (TYPE 2)", "cell line": "HEP-2", "tested at": "10 µM", "result": "0%"}
{"smiles": "CC12CC[C@H](O)CC1=CCC1C2CCC2(C)C(C(=O)COS(=O)(=O)O)CCC12", "strain or isolate": "TYPE 3", "cell line": "VERO", "tested at": "40 µg/mL", "result": "0%"}
{"smiles": "Clc1ccc(C2CCc3ccccc3O2)c(Cl)c1", "strain or isolate": "IA (TYPE 2)", "cell line": "HEP-2", "tested at": "10 µM", "result": "31%"}
{"smiles": "CCC(=O)C(CCCCCCOc1ccc(OC)cc1Cl)C(=O)CC", "strain or isolate": "MEF (TYPE 2)", "cell line": "HeLa", "tested at": "1.08 µM", "result": "100%"}
{"smiles": "CC(C)/C=C/[C@@H](COS(=O)(=O)O)[C@H]1CC[C@H]2[C@@H]3CC[C@@H]4[C@H](O)[C@H](OS(=O)(=O)O)CC[C@]4(C)[C@H]3[C@@H](O)C[C@]12C", "strain or isolate": "SABIN (TYPE 3)", "cell line": "VERO", "tested at": "10 µg/mL", "result": "21%"}
{"smiles": "CC12CCC3C(C[C@H](OS(=O)(=O)O)[C@H]4C[C@@H](OS(=O)(=O)O)CCC34C)C1CCC2C(=O)CO", "strain or isolate": "TYPE 3", "cell line": "VERO", "tested at": "40 µg/mL", "result": "0%"}
{"smiles": "CC(O)c1ccc2c(c1)S(=O)(=O)c1ccccc1O2", "strain or isolate": "TYPE 3", "cell line": "BSC-1", "tested at": "0.4 µg/mL", "result": "1%"}
{"smiles": "Brc1ccc(C2=Cc3ccccc3OC2)cc1", "strain or isolate": "IB (TYPE 2)", "cell line": "HEP-2", "tested at": "10 µM", "result": "0%"}
{"smiles": "CC(OC(=O)Nc1ccc2ccccc2c1)c1ccc2c(c1)Sc1ccccc1O2", "strain or isolate": "TYPE 3", "cell line": "BSC-1", "tested at": "10 µg/mL", "result": "41%"}
{"smiles": "CC(=O)O[C@H]1CC2=CCC3C(CCC4(C)C(C(CCC=C(C)C)COS(=O)(=O)O)CCC34)C2(C)C[C@@H]1OS(=O)(=O)O", "strain or isolate": "TYPE 3", "cell line": "VERO", "tested at": "40 µg/mL", "result": "36.3%"}
{"smiles": "C/C(=N\\O)c1ccc2c(c1)Sc1ccccc1S2", "strain or isolate": "TYPE 3", "cell line": "BSC-1", "tested at": "10 µg/mL", "result": "61%"}
{"smiles": "C1=C(c2ccccc2)COc2ccccc21", "strain or isolate": "II (TYPE 2)", "cell line": "HEP-2", "tested at": "10 µM", "result": "93%"}
{"smiles": "CCC(O)c1ccc2c(c1)Sc1ccccc1O2", "strain or isolate": "TYPE 3", "cell line": "BSC-1", "tested at": "2 µg/mL", "result": "31%"}
{"smiles": "c1ccc(C2COc3ccccc3C2)cc1", "strain or isolate": "SABIN (TYPE 2)", "cell line": "HEP-2", "tested at": "10 µM", "result": "47%"}

The first 2 rows once more:

smiles	strain or isolate	cell line	tested at	result
CC(O)c1ccc2c(c1)Sc1cc(C(C)O)ccc1O2	TYPE 3	BSC-1	10 µg/mL	47%
CC(C)=CCCC(COS(=O)(=O)O)C1CCC2C3CC=C4C[C@H](O)[C@@H](OS(=O)(=O)O)CC4(C)C3CCC12C	TYPE 3	VERO	40 µg/mL	2%